{"source": "patent US20120184020A1", "about": "“ENGINEERED MICROORGANISMS WITH ENHANCED FERMENTATION ACTIVITY” (Verdezyne, Inc., priority 2009, published 2012)", "experiment": "Anti-His western blot of xylose isomerase constructs expressed in S. cerevisiae", "design": "species or system Saccharomyces cerevisiae", "conditions": "His-tagged constructs in p426GPD, S. cerevisiae BY4742", "data": [{"substance": "Piromyces xylose isomerase: xylose isomerase from Piromyces strain E2, SEQ ID NO. 35 [reference compound]", "values": [{"measurement": "expression of xylose isomerase in yeast cells (western)", "value": "expressed in both the soluble and insoluble fractions"}, {"measurement": "expression of xylose isomerase in yeast cells (western)", "setting": "listed as wild type Piromyces xylose isomerase", "value": "expressed in the soluble fraction"}]}]}
